Values of other authors as cited in article PMC6593967, “The development and prevalidation of an in vitro mutagenicity assay based on MutaMouse primary hepatocytes, Part II: Assay performance for the identification of mutagenic chemicals” (Environmental and Molecular Mutagenesis, 2019).

Columns and labels:
tk locus = conditions: cited from earlier work
Hprt gene = conditions: cited from earlier work

Substance: aflatoxin B1 [AFB1]
- Response in MLA (tk locus): strong positive
- Response in HPRT test (Hprt gene): strong positive
